A mixed list of measured activities; the numbers were collected in NIAID ChemDB.

Shared fields: toxicity to cultured cells; cell line: CEM; endpoint: CC50

Lines come from different laboratories, so protocols vary.

| SMILES | read by | value |
|---|---|---|
| Cc1cn([C@H]2C[C@H](O)[C@@H](CO)O2)c(=O)n(C)c1=O | - | >500 µg/mL |
| COC(O)[C@@H]1OC12[C@@H](CO[Si](C)(C)C(C)(C)C)O[C@@H](n1cc(C)c(=O)[nH]c1=O)[C@@H]2O[Si](C)(C)C(C)(C)C | propidium iodide / flow cytometry | 22 µM |
| COC(=O)[C@H]1NC(=O)[C@H]2NC(=O)[C@H](NC(=O)[C@@H]3NC(=O)[C@H]4NC(=O)[C@@H](Cc5ccc(c(Cl)c5)Oc5cc3cc(c5O)Oc3ccc(cc3Cl)[C@H]2O)NC(=O)[C@H](N)c2ccc(O)c(c2)Oc2cc(O)cc4c2)c2ccc(O)c(c2)-c2c(O)cc(O)cc21 | cell count | 248 µM |
| O=C(c1ccccc1)c1ccc2c(c1)oc(=O)n2CCN1CCCCC1 | - | 23 µg/mL |
| C[C@H](NC(=O)c1ccccc1SSc1ccccc1C(=O)N[C@@H](C)C(=O)O)C(=O)O | - | >200 µM |
| NC(=O)CCNC(=O)c1ccccc1S | XTT | 741 µM |
| C=C(C)[C@@H]1CC[C@]2(C(=O)NCCCCC(=O)O)CC[C@]3(C)[C@H](CC[C@@H]4[C@@]5(C)CC[C@H](O)C(C)(C)[C@@H]5CC[C@]43C)[C@@H]12 | - | >3 µM |
| O=c1[nH]cnc2c1ncn2[C@H]1O[C@@H](CO)[C@H](O)C1(F)F | - | >100 µM |
| CN[C@H]1C(=O)N[C@@H]2Cc3ccc(cc3)Oc3cc4cc(c3O[C@@H]3O[C@H](C(=O)O)[C@@H](O)[C@H](O)[C@H]3N)Oc3ccc(cc3Cl)[C@@H](O)[C@@H]3NC(=O)[C@H](NC(=O)[C@@H]4NC(=O)[C@@H](NC2=O)c2cc(cc(O)c2Cl)Oc2cc1ccc2O)c1ccc(O)c(c1)-c1c(O[C@H]2O[C@H](CO)[C@@H](O)[C@H](O)[C@@H]2O)cc(O)cc1[C@@H](C(=O)O)NC3=O | cell count | >500 µM |
| CCCCCCCC(=O)NCCCCC(=O)O | - | 100 µg/mL |
| C=C(C)[C@@H]1CC[C@]2(C(=O)NCCCCCCCNC(=O)CC(=O)O)CC[C@]3(C)[C@H](CC[C@@H]4[C@@]5(C)CC[C@H](O)C(C)(C)[C@@H]5CC[C@]43C)[C@@H]12 | - | >3 µM |
| O=C(c1ccc(F)cc1)c1ccc2[nH]c(=O)oc2c1 | - | 35 µg/mL |
| CCCCCCC(=O)CCCCCCC(=O)O | - | 15 µg/mL |
| CCC(C)Oc1ccc(NC(=O)c2ccccc2SSc2ccccc2C(=O)Nc2ccc(OC(C)CC)cc2)cc1 | - | >120 µM |
| NS(=O)(=O)c1ccc(NC(=O)c2ccccc2COc2ccccc2C(=O)Nc2ccc(S(N)(=O)=O)cc2)cc1 | - | >100 µM |
| O=C(N[C@H]1C(=O)N[C@@H]2Cc3ccc(c(Cl)c3)Oc3cc4cc(c3O)Oc3ccc(cc3Cl)[C@@H](O)[C@@H]3NC(=O)[C@H](NC(=O)[C@@H]4NC(=O)[C@@H](NC2=O)c2cc(O)cc(c2)Oc2cc1ccc2O)c1ccc(O)c(c1)-c1c(O)cc(O)cc1[C@@H](C(=O)O)NC3=O)OCC1c2ccccc2-c2ccccc21 | cell count | 114 µM |
| CS(=O)(=O)c1ccc(NC(=O)c2ccccc2SSc2ccccc2C(=O)Nc2ccc(S(C)(=O)=O)cc2)cc1 | - | 22 µM |
| Cc1cn([C@H]2C[C@H](N=[N+]=[N-])[C@@H](COP(=O)(OCCC#N)OC3CCC4(C)C(=CCC5C4CCC4(C)C(C(C)CCCC(C)C)CCC54)C3)O2)c(=O)[nH]c1=O | - | >200 µM |
| O=c1[nH]c(=O)n([C@H]2O[C@@H](CO)[C@H](O)C2(F)F)cc1Br | - | >100 µM |
| NS(=O)(=O)c1ccc(NC(=O)c2ccccc2O)cc1 | - | >100 µM |
| CN[C@H](CC(C)C)C(=O)N[C@H]1C(=O)N[C@@H](CC(N)=O)C(=O)N[C@H]2C(=O)N[C@H]3C(=O)N[C@H](C(=O)N[C@H](C(=O)O)c4cc(O)c(CNCc5ccc(-c6ccc(Cl)cc6)cc5)c(O)c4-c4cc3ccc4O)[C@H](O[C@H]3C[C@](C)(N)[C@@H](O)[C@H](C)O3)c3ccc(cc3)Oc3cc2cc(c3OC2O[C@H](CO)[C@@H](O)[C@H](O)[C@H]2O[C@H]2C[C@](C)(N)[C@@H](O)[C@H](C)O2)Oc2ccc(cc2Cl)[C@H]1O | cell count | 106 µM |
| O=C(O)CCCCCCCCCCCCn1ncnn1 | - | 179 µg/mL |
| Nc1ccn([C@H]2O[C@@H](CO)[C@H](O)C2(F)F)c(=O)n1 | - | >100 µM |
| CN[C@H](CC(C)C)C(=O)N[C@H]1C(=O)N[C@@H](CC(N)=O)C(=O)N[C@H]2C(=O)N[C@H]3C(=O)N[C@H](C(=O)N[C@H](C(=O)O)c4cc(O)cc(O)c4-c4cc3ccc4O)[C@H](O[C@H]3C[C@](C)(N)[C@@H](O)[C@H](C)O3)c3ccc(cc3)Oc3cc2cc(c3OC2O[C@H](CO)[C@@H](O)[C@H](O)[C@H]2O[C@H]2C[C@](C)(N)[C@@H](O)[C@H](C)O2)Oc2ccc(cc2Cl)[C@H]1O | cell count | >500 µM |
| CC[C@H](C)[C@H](NC(=O)c1ccccc1SSc1ccccc1C(=O)N[C@H](C(=O)O)[C@@H](C)CC)C(=O)O | - | 140 µM |
| CC(=O)CCCCCCCCCCCC(=O)O | - | 45 µg/mL |
| O=C(N[C@@H](CO)C(=O)O)c1ccccc1SSc1ccccc1C(=O)N[C@@H](CO)C(=O)O | - | >100 µM |
| CCCCC(=O)c1ccc2c(c1)sc(=O)n2CCN1CCOCC1 | - | 11 µg/mL |
| CC(C)=CCOc1cc(NC(=S)c2ccoc2C)ccc1Cl | - | >20 µM |
| CC(C)(C)[Si](C)(C)O[C@H]1[C@H](n2ccc(=O)[nH]c2=O)O[C@H](CO)C1(O)C(N=[N+]=[N-])C(N)=O | propidium iodide / flow cytometry | >50 µM |
| [N-]=[N+]=NCCCCCCCCCCC(=O)O | - | 26 µg/mL |
| C=C(C)[C@@H]1CC[C@]2(C(=O)NCCCCCC(=O)NCCCC(=O)O)CC[C@]3(C)[C@H](CC[C@@H]4[C@@]5(C)CC[C@H](O)C(C)(C)[C@@H]5CC[C@]43C)[C@@H]12 | - | >3 µM |
| CN[C@H]1C(=O)N[C@@H]2Cc3ccc(cc3)Oc3cc4cc(c3O[C@@H]3O[C@H](C(=O)O)[C@@H](O)[C@H](O)[C@H]3N)Oc3ccc(cc3Cl)[C@@H](O)[C@@H]3NC(=O)[C@H](NC(=O)[C@@H]4NC(=O)[C@@H](NC2=O)c2cc(cc(O)c2Cl)Oc2cc1ccc2O)c1ccc(O)c(c1)-c1c(O)cc(O)cc1[C@@H](C(=O)O)NC3=O | cell count | >500 µM |
| C=C(C)[C@@H]1CC[C@]2(C(=O)NCCCCCCCNC(=O)c3ccccc3C(=O)O)CC[C@]3(C)[C@H](CC[C@@H]4[C@@]5(C)CC[C@H](O)C(C)(C)[C@@H]5CC[C@]43C)[C@@H]12 | - | >3 µM |
| Nc1nc(=O)n(C2O[C@@H](CO)[C@H](O)C2(F)F)cc1Br | - | >100 µM |
| C=C(C)[C@@H]1CC[C@]2(C(=O)NCCCCCCCNC(=O)c3cccc(C(=O)O)c3)CC[C@]3(C)[C@H](CC[C@@H]4[C@@]5(C)CC[C@H](O)C(C)(C)[C@@H]5CC[C@]43C)[C@@H]12 | - | 0.525 µM |
| O=C(c1ccc(Cl)c(Cl)c1)c1ccc2[nH]c(=O)sc2c1 | - | 6.8 µg/mL |
| COC(=O)[C@@H]1O[C@]12[C@@H](CO[Si](C)(C)C(C)(C)C)O[C@@H](n1ccc(=O)[nH]c1=O)[C@@H]2O[Si](C)(C)C(C)(C)C | propidium iodide / flow cytometry | 11 µM |
| COC(=O)[C@H](CCCCN)NC(=O)c1ccccc1SSc1ccccc1C(=O)N[C@@H](CCCCN)C(=O)OC | - | >100 µM |
| O=C(N[C@H]1C(=O)N[C@@H]2Cc3ccc(c(Cl)c3)Oc3cc4cc(c3O)Oc3ccc(cc3Cl)[C@@H](O)[C@@H]3NC(=O)[C@H](NC(=O)[C@@H]4NC(=O)[C@@H](NC2=O)c2cc(O)cc(c2)Oc2cc1ccc2O)c1ccc(O)c(c1)-c1c(O)cc(O)cc1[C@@H](C(=O)O)NC3=O)OCc1ccccc1 | cell count | >250 µM |
| O=c1[nH]c(=O)n([C@H]2O[C@@H](CO)[C@H](O)C2(F)F)cc1Cl | - | >100 µM |
| CC(C)C[C@H](NC(=O)c1ccccc1SSc1ccccc1C(=O)N[C@@H](CC(C)C)C(=O)OCc1ccccc1)C(=O)OCc1ccccc1 | - | 73 µM |
| Nc1nc(=O)n([C@@H]2O[C@@H](CO)[C@H](O)C2(F)F)cc1Cl | - | >100 µM |
| C=C(C)C[C@H](NC(=O)c1ccccc1SSc1ccccc1C(=O)N[C@@H](CC(=C)C)C(=O)O)C(=O)O | - | >100 µM |
| COC(=O)/C=C1/[C@@H](O[Si](C)(C)C(C)(C)C)[C@H](n2cc(C)c(=O)n(C)c2=O)O[C@@H]1CO[Si](C)(C)C(C)(C)C | propidium iodide / flow cytometry | 41 µM |
| CCCCCCCOC(=O)CCCCC(=O)O | - | >100 µg/mL |
| COC(=O)[C@H]1NC(=O)[C@H]2NC(=O)[C@H](NC(=O)[C@@H]3NC(=O)[C@H]4NC(=O)[C@H](NC(=O)[C@H](N)c5ccc(O)c(c5)Oc5cc4cc(O)c5C)[C@H](O)c4ccc(cc4)Oc4cc3cc(c4O)Oc3ccc(cc3)[C@H]2O)c2ccc(O)c(c2)-c2c(O)cc(O)cc21 | cell count | >100 µM |
| O=c1ccn([C@@H]2O[C@@H](CO)[C@H](O)C2(F)F)c(=O)[nH]1 | - | >100 µM |
| O=C1N[C@H]2C(=O)N[C@H]3C(=O)N[C@H](C(=O)N[C@H](C(=O)O)c4cc(O)cc(O)c4-c4cc3ccc4O)[C@H](O)c3ccc(c(Cl)c3)Oc3cc2cc(c3O)Oc2ccc(cc2Cl)C[C@H]2NC(=O)[C@H](NC(=S)Nc3ccccc3)c3ccc(O)c(c3)Oc3cc(O)cc(c3)[C@@H]1NC2=O | cell count | 220 µM |
| Cc1cn([C@H]2C[C@H](F)[C@@H](CO)O2)c(=O)n(CCF)c1=O | - | >500 µg/mL |
| CNC(=O)c1ccccc1SSc1ccccc1C(=O)NC | - | 11 µM |
| NC(=O)C(NC(=O)c1ccccc1SSc1ccccc1C(=O)NC(C(N)=O)C(N)=O)C(N)=O | - | >100 µM |
| C=C(C)[C@@H]1CC[C@]2(C(=O)NCCCCCCCC(=O)Nc3ccc(C(=O)O)cc3)CC[C@]3(C)[C@H](CC[C@@H]4[C@@]5(C)CC[C@H](O)C(C)(C)[C@@H]5CC[C@]43C)[C@@H]12 | - | 0.98 µM |
| NS(=O)(=O)c1ccc(OC(=O)c2ccccc2SSc2ccccc2C(=O)Oc2ccc(S(N)(=O)=O)cc2)cc1 | - | >162 µM |
| CCOC(=O)CNC(=O)c1ccccc1SSc1ccccc1C(=O)NCC(=O)OCC | - | 25 µM |
| C=C(C)[C@@H]1CC[C@]2(C(=O)NCCCCCCCC(=O)NCCCCC(=O)O)CC[C@]3(C)[C@H](CC[C@@H]4[C@@]5(C)CC[C@H](O)C(C)(C)[C@@H]5CC[C@]43C)[C@@H]12 | - | >3 µM |
| O=C(c1cccc(Cl)c1)c1ccc2[nH]c(=O)oc2c1 | - | 16 µg/mL |
| CC(C)(C)[Si](C)(C)OC[C@H]1O[C@@H](n2ccc(=O)[nH]c2=O)[C@H](O[Si](C)(C)C(C)(C)C)[C@@]12O[C@H]2C(=O)NO | propidium iodide / flow cytometry | 4.5 µM |
| Cc1cn([C@H]2C[C@H](O)[C@@H](CO)O2)c(=O)n(CCF)c1=O | - | 349 µg/mL |

For reference, 4 entries again:

SMILES | read by | value
CNC(=O)c1ccccc1SSc1ccccc1C(=O)NC | - | 11 µM
CCCCC(=O)c1ccc2c(c1)sc(=O)n2CCN1CCOCC1 | - | 11 µg/mL
O=C(N[C@H]1C(=O)N[C@@H]2Cc3ccc(c(Cl)c3)Oc3cc4cc(c3O)Oc3ccc(cc3Cl)[C@@H](O)[C@@H]3NC(=O)[C@H](NC(=O)[C@@H]4NC(=O)[C@@H](NC2=O)c2cc(O)cc(c2)Oc2cc1ccc2O)c1ccc(O)c(c1)-c1c(O)cc(O)cc1[C@@H](C(=O)O)NC3=O)OCc1ccccc1 | cell count | >250 µM
Cc1cn([C@H]2C[C@H](O)[C@@H](CO)O2)c(=O)n(C)c1=O | - | >500 µg/mL

CCn: concentration that lowers growth or viability of the cells by n%. An empty or dashed field is not shown.